Results of unrelated studies side by side (data: NIAID ChemDB).

Common to all: tests in culture; species: HIV-1; cell line: MT-4; endpoint: fold resistance

Neighbouring rows are from separate reports. An empty or dashed field is not shown. Fold resistance has wild type as its base.

structure	strain or isolate	changes	method	value
N#Cc1cc2[nH]c3ccccc3c2n(-c2ccc([N+](=O)[O-])cc2)c1=O	A	RT-Y181C	cytopathic effect / MTT	8
Cc1cc(C#N)cc(C)c1Oc1nc(Nc2ccc(C#N)cc2)ncc1SCC(=O)NC1CC1		L100I	MTT	5.1
N#Cc1cc(Cl)cc(Oc2c(Br)ccc(CC(=O)Nc3ccc(S(N)(=O)=O)cc3Cl)c2F)c1		Y181I/M230L		9
CCc1c(C)[nH]c(=O)c(C(F)(F)F)c1Oc1cc(C)cc(C)c1		RT-Y181C	cytopathic effect / MTT	16
Cc1ccc(C2CC2)c(-c2ccc3c(c2)CCCO3)c1[C@H](OC(C)(C)C)C(=O)O	NL4-3	NRTI/NNRTI resistant NLAY351753	luminescence	1
CCc1c(C)[nH]c(=O)c(C2CC2)c1Oc1cc(C)cc(C)c1		RT-Y181C	cytopathic effect / MTT	25
COCCNC(=O)CSc1cnc(Nc2ccc(C#N)cc2)nc1Oc1c(C)cc(C#N)cc1C		RES056	MTT	91.4
Cc1ccc(C2CC2)c(-c2ccc3c(c2C)CCCO3)c1[C@H](OC(C)(C)C)C(=O)O	NL4-3	A128T	p24 / luminescence	2
Cc1cc(C#N)cc(C)c1Oc1nc(Nc2ccc(C#N)cc2)ncc1SCC(=O)NC1CCN(C(=O)OC(C)(C)C)CC1		Y188L	MTT	22
CC(C)[C@H](NC(=O)OCc1ccccn1)C(=O)N[C@@H](Cc1ccccc1)[C@@H](O)C[C@H](Cc1ccccc1)NC(=O)OCc1cccnc1	NL4-3	PR-L63P V82T I84V	p24	3.75
CCc1c(C)[nH]c(=O)c(Sc2ccccc2)c1Oc1cc(C)cc(C)c1		RT-K103N Y181C	cytopathic effect / MTT	158
Cc1cc(C#N)cc(C)c1Oc1nc(Nc2ccc(C#N)cc2)ncc1SCC(=O)NCCN1CCOCC1		F227L V106A	MTT	35.8
CCc1c(C)[nH]c(=O)c(Br)c1Oc1cc(C)cc(C)c1		RT-Y181C	cytopathic effect / MTT	32
Cc1cc(C#N)cc(C)c1Oc1nc(Nc2ccc(C#N)cc2)ncc1SCC(N)=O		Y188L	MTT	7
CCc1c(C)[nH]c(=O)c(OC)c1Oc1cc(C)cc(C)c1		RT-K103N Y181C	cytopathic effect / MTT	200
Cn1c2ccccc2c2c1cc(C#N)c(=O)n2-c1ccc([N+](=O)[O-])cc1	D	RT-L100I K103N	cytopathic effect / MTT	2

A second listing of 2 rows from above:

structure	strain or isolate	changes	method	value
Cc1ccc(C2CC2)c(-c2ccc3c(c2C)CCCO3)c1[C@H](OC(C)(C)C)C(=O)O	NL4-3	A128T	p24 / luminescence	2
Cc1ccc(C2CC2)c(-c2ccc3c(c2)CCCO3)c1[C@H](OC(C)(C)C)C(=O)O	NL4-3	NRTI/NNRTI resistant NLAY351753	luminescence	1